Compound potency records, mixed from different reports. Data source: NIAID ChemDB in PubChem.

All rows: growth or infection tests; species: HIV-1

Neighbouring rows are from separate reports. ECn is the concentration giving n% inhibition of infection, replication or growth. Blank or dashed fields: not listed here.

{"SMILES": "CCCCCOC(=S)Nc1ccc(Cl)c(C(=O)OC(C)C)c1", "cells": "CEM", "read by": "syncytia", "measure": "EC50", "changes": "RT-L100I", "result": "16 µM"}
{"SMILES": "[2H]C(NC(=O)c1ccc(Cl)cc1)(C(=O)NC[C@H](O)[C@@]12CC[C@]3(C)[C@H](CC[C@@H]4[C@@]5(C)CC[C@H](OC(=O)[C@H]6C[C@@H](C(=O)O)C6(C)C)C(C)(C)[C@@H]5CC[C@]43C)C1=C(C(C)C)C(=O)C2)C(C)O", "cells": "MT-2", "read by": "p24 / ELISA", "measure": "EC50", "strain or isolate": "92HT599", "result": "<1 µM"}
{"SMILES": "Cc1nc2ccc(Cl)cc2c(-c2cccc(O)c2)c1C(OC(C)C)C(=O)O", "cells": "C8166", "read by": "luciferase / reporter gene", "measure": "EC50", "result": "<20 µM"}
{"SMILES": "CC(C)C1=C2[C@H]3CC[C@@H]4[C@@]5(C)CC[C@H](OC(=O)[C@H]6C[C@@H](C(=O)O)C6(C)C)C(C)(C)[C@@H]5CC[C@@]4(C)[C@]3(C)CC[C@@]2(CCNCC(C)(C)NC(=O)c2ccc(Cl)cc2OCCN2CCCC2)CC1=O", "cells": "MT-2", "read by": "p24 / ELISA", "measure": "EC50", "strain or isolate": "92HT599", "result": "<1 µM"}
{"SMILES": "CC(C)OC(=O)c1cc(NC(=S)N(C)C(C)C)ccc1Cl", "cells": "CEM", "read by": "syncytia", "measure": "EC50", "changes": "RT-V106A", "result": ">30.32 µM"}
{"SMILES": "CCC1=C(C(=O)OCC2CCCCC2)C(c2cccc(C(=O)OC)c2)NC(=O)N1", "cells": "CEM", "read by": "p24 / ELISA", "measure": "EC50", "result": "≤1 µM"}
{"SMILES": "CO/N=C(\\C)COc1cc(NC(=S)OC(C)C)ccc1Cl", "cells": "CEM", "read by": "syncytia", "measure": "EC50", "changes": "RT-E138K", "result": "1.511 µM"}
{"SMILES": "COS(=O)(=O)c1ccc(NC(=O)Nc2cccc3c(C(=O)C(=O)N4CCC(=C(C#N)c5ccccc5)CC4)c[nH]c23)cc1", "cells": "HeLa", "read by": "luciferase / reporter gene", "measure": "EC50", "result": "<1 µM"}
{"SMILES": "CCC1=C(C(=O)OCC2CCCCC2)[C@H](c2cccc(OC(=O)[C@H](C)NC(=O)OC(C)(C)C)c2)NC(=O)N1", "cells": "CEM", "read by": "p24 / ELISA", "measure": "EC50", "result": "≤1 µM"}
{"SMILES": "CC(C)OC(=O)c1cc(NC(=S)SC(C)C)ccc1Cl", "cells": "CEM", "read by": "syncytia", "measure": "EC50", "changes": "RT-L100I", "result": ">30.13 µM"}
{"SMILES": "COC(C(=O)O)c1c(C)nc2ccc(Cl)cc2c1-c1ccc(C)cc1", "cells": "C8166", "read by": "luciferase / reporter gene", "measure": "EC50", "result": "<20 µM"}
{"SMILES": "CCOC(=O)CCCNC(=O)Nc1cccc2c(C(=O)C(=O)N3CCN(C(=O)c4ccccc4)C[C@H]3C)c[nH]c12", "cells": "HeLa", "read by": "luciferase / reporter gene", "measure": "EC50", "result": "<1 µM"}
{"SMILES": "COP(=O)(c1cc(C)cc(CCC#N)c1)c1c(C(N)=O)[nH]c2ccc(Cl)cc12", "cells": "MT-4", "read by": "cytopathic effect", "measure": "EC50", "changes": "K103N/Y181C", "strain or isolate": "IIIB", "result": "0.0091 µM"}
{"SMILES": "CC(C)C1=C2[C@H]3CC[C@@H]4[C@@]5(C)CC[C@H](OC(=O)[C@H]6C[C@@H](C(=O)O)C6(C)C)C(C)(C)[C@@H]5CC[C@@]4(C)[C@]3(C)CC[C@@]2([C@@H](O)CNC(=O)C(C)(C)NC(=O)c2ccc(Cl)cc2O[C@H]2CCOC2)CC1=O", "cells": "MT-2", "read by": "p24 / ELISA", "measure": "EC50", "strain or isolate": "92HT599", "result": "<1 µM"}
{"SMILES": "CSc1ccc(NC(=S)OC(C)C)cc1C(=O)OC(C)C", "cells": "CEM", "read by": "syncytia", "measure": "EC50", "strain or isolate": "IIIB", "result": "0.122 µM"}
{"SMILES": "CC(C)C1=C2[C@H]3CC[C@@H]4[C@@]5(C)CC[C@H](OC(=O)[C@H]6C[C@@H](C(=O)O)C6(C)C)C(C)(C)[C@@H]5CC[C@@]4(C)[C@]3(C)CC[C@@]2(CC(=O)NC(F)CNC(=O)c2ccc(Cl)cc2)CC1=O", "cells": "MT-2", "read by": "p24 / ELISA", "measure": "EC50", "strain or isolate": "92HT599", "result": "<1 µM"}
{"SMILES": "COCCOC(=S)Nc1ccc(Cl)c(C(=O)OC(C)C)c1", "cells": "CEM", "read by": "syncytia", "measure": "EC50", "strain or isolate": "IIIB", "result": "0.573 µM"}
{"SMILES": "CCC1=C(C(=O)OCC2CCCCC2)[C@H](c2cccc(OC(=O)C(C)(C)C)c2)NC(=O)N1", "cells": "CEM", "read by": "p24 / ELISA", "measure": "EC50", "result": "≤1 µM"}
{"SMILES": "C#CCOc1cc(NC(=S)OC(C)C)ccc1Cl", "cells": "CEM", "read by": "syncytia", "measure": "EC50", "strain or isolate": "IIIB", "result": "0.282 µM"}
{"SMILES": "CC1=C(C(=O)OCC2CCCCC2)C(c2cccc(N)c2)NC(=O)N1", "cells": "CEM", "read by": "p24 / ELISA", "measure": "EC50", "result": "≤1 µM"}
{"SMILES": "CNCCCN(C)CCN1CCN(c2cccc3c(C(=O)C(=O)N4CCN(C(=O)c5ccccc5)C[C@H]4C)c[nH]c23)C1=O", "cells": "HeLa", "read by": "luciferase / reporter gene", "measure": "EC50", "result": "<1 µM"}
{"SMILES": "O=C1Nc2ccc(F)c(F)c2C(C#Cc2ccccn2)(C(F)(F)F)O1", "measure": "EC50", "result": "<0.00678 µM"}
{"SMILES": "CC(C)C1=C2[C@H]3CC[C@@H]4[C@@]5(C)CC[C@H](OC(=O)[C@H]6C[C@@H](C(=O)O)C6(C)C)C(C)(C)[C@@H]5CC[C@@]4(C)[C@]3(C)CC[C@@]2(CCNC(=O)c2ccc(Cl)cn2)CC1=O", "cells": "MT-2", "read by": "p24 / ELISA", "measure": "EC50", "strain or isolate": "92HT599", "result": "<1 µM"}
{"SMILES": "C=CCOC(=O)c1cc(NC(=S)OC(C)C)ccc1Cl", "cells": "CEM", "read by": "syncytia", "measure": "EC50", "changes": "RT-Y181C", "result": "2.709 µM"}
{"SMILES": "Cc1nc2ccc(Br)cc2c(-c2ccc(Cl)cc2)c1C(OC(C)(C)C)C(=O)O", "cells": "C8166", "read by": "luciferase / reporter gene", "measure": "EC50", "result": "<20 µM"}
{"SMILES": "CCC1=C(C(=O)OCC2CCCCC2)C(c2cccc([N+](=O)[O-])c2)NC(=O)N1", "cells": "CEM", "read by": "p24 / ELISA", "measure": "EC50", "result": "≤1 µM"}
{"SMILES": "CC(C)OC(=S)Nc1ccc(Cl)c(C(=O)OC2CCCC2)c1", "cells": "CEM", "read by": "syncytia", "measure": "EC50", "changes": "RT-Y181C", "result": "1.609 µM"}
{"SMILES": "CC(C)=CCOc1cc(NC(=S)c2ccsc2C)ccc1Cl", "cells": "CEM + CEM-SS", "read by": "p24", "measure": "EC50", "changes": "RT-K103N", "strain or isolate": "NL4-3", "result": "0.07 µM"}
{"SMILES": "Cc1nc2ccc(Cl)cc2c(-c2ccc(N(C)C)cc2)c1C(OC(C)C)C(=O)O", "cells": "C8166", "read by": "luciferase / reporter gene", "measure": "EC50", "result": "<20 µM"}
{"SMILES": "C[C@@H]1CN(C(=O)c2ccccc2)CCN1C(=O)C(=O)c1c[nH]c2c(NC(=O)Nc3ccc(S(=O)(=O)O)cc3)cccc12", "cells": "HeLa", "read by": "luciferase / reporter gene", "measure": "EC50", "result": "<1 µM"}
{"SMILES": "CC(C)OC(=S)Nc1ccc(Cl)c(C(=O)OCc2ccccc2)c1", "cells": "CEM", "read by": "syncytia", "measure": "EC50", "changes": "RT-V106A", "result": "23.36 µM"}
{"SMILES": "CCOC1(C(F)(F)F)OC(=O)Nc2ccc(Cl)cc21", "measure": "EC50", "changes": "RT-K103N", "result": "<0.1392 µM"}
{"SMILES": "CC(C)OC(=O)c1cc(NC(=S)OCC2CC2)ccc1Cl", "cells": "CEM", "read by": "syncytia", "measure": "EC50", "changes": "RT-L100I", "result": "7.603 µM"}
{"SMILES": "CC(C)=CCOc1cc(NC(=S)c2ccoc2C)ccc1Cl", "cells": "CEM", "read by": "syncytia", "measure": "EC50", "changes": "RT-L100I", "strain or isolate": "IIIB", "result": "0.024 µM"}
{"SMILES": "CC(C)OC(=O)c1cc(NC(=S)OC(C)C)ccc1Cl", "cells": "CEM", "measure": "EC50", "changes": "RT-K101E", "strain or isolate": "IIIB", "result": "0.025 µM"}
{"SMILES": "CCC1=C(C(=O)OCC2CCCCC2)[C@H](c2cccc(OC(C)=O)c2)NC(=O)N1", "cells": "CEM", "read by": "p24 / ELISA", "measure": "EC50", "result": "≤1 µM"}
{"SMILES": "CCOC(=O)C(C)Oc1cc(NC(=S)OC(C)C)ccc1Cl", "cells": "CEM", "read by": "syncytia", "measure": "EC50", "changes": "RT-V106A", "result": "4.337 µM"}
{"SMILES": "CCOC(=O)C1=C(C)NC(=O)NC1c1cccc([N+](=O)[O-])c1", "cells": "CEM", "read by": "p24 / ELISA", "measure": "EC50", "result": ">5 µM"}
{"SMILES": "CC(C)OC(=O)c1cc(NC(=S)OCC2(C)COC2)ccc1Cl", "cells": "CEM", "read by": "syncytia", "measure": "EC50", "changes": "RT-L100I", "result": ">29.94 µM"}
{"SMILES": "CCCC(C(=O)O)c1c(C)nc2ccc(Cl)cc2c1-c1ccc(F)c(Cl)c1", "cells": "C8166", "read by": "luciferase / reporter gene", "measure": "EC50", "result": "<20 µM"}
{"SMILES": "CC1=C(C(=O)Nc2ccc(Cl)c(C(=O)OC(C)C)c2)SCCO1", "cells": "CEM", "read by": "syncytia", "measure": "EC50", "strain or isolate": "IIIB", "result": "0.042 µM"}
{"SMILES": "CC(C)C1=C2[C@H]3CC[C@@H]4[C@@]5(C)CC[C@H](OC(=O)[C@H]6C[C@@H](C(=O)O)C6(C)C)C(C)(C)[C@@H]5CC[C@@]4(C)[C@]3(C)CC[C@@]2(CC(=O)NCC2(NC(=O)c3ccc(Cl)cc3)CCCCC2)CC1=O", "cells": "MT-2", "read by": "p24 / ELISA", "measure": "EC50", "strain or isolate": "92HT599", "result": "<1 µM"}
{"SMILES": "CCCOC1(C(F)(F)F)OC(=O)Nc2ccc(Cl)cc21", "measure": "EC90", "changes": "RT-K103N", "result": "0.064 µM"}
{"SMILES": "Cc1ccc(-c2c(C(OC(C)C)C(=O)O)c(C)nc3ccc(Cl)cc23)cn1", "cells": "C8166", "read by": "luciferase / reporter gene", "measure": "EC50", "result": "<20 µM"}
{"SMILES": "CC[C@@H](C)OC(=S)Nc1ccc(Cl)c(C(=O)OC(C)C)c1", "cells": "CEM", "read by": "syncytia", "measure": "EC50", "strain or isolate": "IIIB", "result": "0.061 µM"}
{"SMILES": "O=C1Nc2ccc(Cl)cc2C(OCC(F)(F)C(F)(F)F)(C(F)(F)F)O1", "measure": "EC50", "result": "<0.6506 µM"}
{"SMILES": "CC(=O)OCCOC(=O)c1cc(NC(=S)OC(C)C)ccc1Cl", "cells": "CEM", "read by": "syncytia", "measure": "EC50", "changes": "RT-E138K", "result": ">27.79 µM"}
{"SMILES": "O=C1Nc2ccc(Cl)cc2C(OCc2ccccc2)(C(F)(F)F)O1", "measure": "EC50", "result": "<0.01789 µM"}
{"SMILES": "Cc1nc2ccc(Br)cc2c(-c2ccc(Cl)cc2)c1[C@H](OC(C)C)C(=O)O", "cells": "C8166", "read by": "luciferase / reporter gene", "measure": "EC50", "result": "<20 µM"}

A second listing of 5 rows from above:

| SMILES | cells | read by | measure | changes | strain or isolate | result |
|---|---|---|---|---|---|---|
| CC(C)OC(=S)Nc1ccc(Cl)c(C(=O)OC2CCCC2)c1 | CEM | syncytia | EC50 | RT-Y181C | - | 1.609 µM |
| CC(=O)OCCOC(=O)c1cc(NC(=S)OC(C)C)ccc1Cl | CEM | syncytia | EC50 | RT-E138K | - | >27.79 µM |
| CSc1ccc(NC(=S)OC(C)C)cc1C(=O)OC(C)C | CEM | syncytia | EC50 | - | IIIB | 0.122 µM |
| CCC1=C(C(=O)OCC2CCCCC2)[C@H](c2cccc(OC(=O)C(C)(C)C)c2)NC(=O)N1 | CEM | p24 / ELISA | EC50 | - | - | ≤1 µM |
| Cc1nc2ccc(Br)cc2c(-c2ccc(Cl)cc2)c1[C@H](OC(C)C)C(=O)O | C8166 | luciferase / reporter gene | EC50 | - | - | <20 µM |